Experimental data as given in PMC3334918, “Mutagenesis and Functional Studies with Succinate Dehydrogenase Inhibitors in the Wheat Pathogen Mycosphaerella graminicola” (PLoS ONE, 2012).

Tests used:
Assay in all cases: in vitro succinate: Q0/DCPIP activity test, purified mitochondria
Assay type in all cases: biochemical, Mycosphaerella graminicola
[1] = tested on: SDH D_D129T (strain Flu29); conditions: ratio IC50mutant/IC50WT, single determination, FR** (full resistance) = no sufficient inhibition detected at highest inhibitor concentration tested
Description: (§1) To explore the sensitivity profiles conferred by amino acid substitutions at the cellular and mitochondrial level, we determined sensitivity towards 4 different compounds for 26 of the identified substitution types both in vivo using liquid culture growth (AE media) and in vitro using purified mitochondria and the succinate: Q0/DCPIP activity test (Table 3). […] Resistance factors (RF) were determined as the ratio IC50mutant/IC50WT. […] Qp site mutations are well known to influence SDH enzyme activity and stability upon catalysis, [13], [38], [41].
(§2) Strains were grown in 1 liter TSM40 units. Cultures were inoculated at 0.05 OD600 nm and grown on a reciprocal shaker (110 rpm, 22°C) for 5 days. Cells were harvested by vacuum filtration and disrupted in liquid nitrogen using a mortar and pestle. Resultant powder was re-suspended to 10% w/v in mitochondrial extraction buffer (10 mM KHPO4 pH7.2; 10 mM KCl, 10 mM MgCl2, 0.5 M sucrose, 0.2 mM EDTA, 2 mM PMSF). Extract was clarified by centrifugation (5,000 g, 4°C for 10 minutes, 2 times), intact mitochondria were then pelleted at 10,000 g for 20 minutes at 4°C. […] This volume was transferred to conical 1.5 ml tubes and re-centrifuged, 10,000 g for 10 minutes at 4°C. […] Mitochondrial suspensions were brought to a final concentration of 10 mg ml^−1 in extraction buffer and stored at −80°C until used.
(§3) Mitochondrial suspensions were incubated at 30°C for 30 minutes in extraction buffer supplemented with 10 mM succinate prior to enzymatic measurements.
(§4) A reaction plate was equilibrated for 10 minutes at 30°C before starting the reaction. DCPIP reduction was conducted at 30°C and monitored at 595 nm using a HTS7000 microtiterplate reader (Perkin Elmer). For calculations a molecular extinction coefficient of ε = 17 mM^−1 cm^−1 was used.
(§5) Inhibitor concentrations ranged between 1 mM and 0.95 nM with uniform 4× dilution factor steps (11 inhibitor concentrations+DMSO control). 96 wells plates were pre equilibrated at reaction temperature (30°C) for 10 minutes before the reactions were started by the addition of 5 µl preactivated M. graminicola mitochondrial suspension. Calculated absorbance slopes (OD/hour) were used for IC50 calculations using Graphpad Prism 5.0 software non linear curve fitting against log inhibitor concentrations.

[2] = tested on: SDH B_H267N (strain Cbx96); conditions: ratio IC50mutant/IC50WT, single determination
Description: as §1, §2, §3, §4, §5

[3] = tested on: SDH B_H267Y (strain Cbx28); conditions: ratio IC50mutant/IC50WT, single determination
Description: as §1, §2, §3, §4, §5

SDH C_N86K (strain Izm7) = conditions: ratio IC50mutant/IC50WT, single determination
Description: as §1, §2, §3, §4, §5

[4] = tested on: SDH B_N225I (strain Flu7); conditions: ratio IC50mutant/IC50WT, single determination
Description: as §1, §2, §3, §4, §5

SDH C_V88D (strain Ol50) = conditions: ratio IC50mutant/IC50WT, single determination
Description: as §1, §2, §3, §4, §5

[5] = tested on: SDH D_D129S (strain Cbx101); conditions: ratio IC50mutant/IC50WT, single determination
Description: as §1, §2, §3, §4, §5

[6] = tested on: SDH B_R265P (strain Cbx56); conditions: ratio IC50mutant/IC50WT, single determination
Description: as §1, §2, §3, §4, §5

[7] = tested on: SDH B_H267Q (strain Bos59); conditions: ratio IC50mutant/IC50WT, single determination
Description: as §1, §2, §3, §4, §5

[8] = tested on: SDH B_H267L (strain Cbx29); conditions: ratio IC50mutant/IC50WT, single determination
Description: as §1, §2, §3, §4, §5

[9] = tested on: SDH B_N271K (strain Flu33); conditions: ratio IC50mutant/IC50WT, single determination
Description: as §1, §2, §3, §4, §5

[10] = tested on: SDH B_I269V (strain Cbx1); conditions: ratio IC50mutant/IC50WT, single determination
Description: as §1, §2, §3, §4, §5

[11] = tested on: SDH C_H152R (strain Izm1); conditions: ratio IC50mutant/IC50WT, single determination
Description: as §1, §2, §3, §4, §5

[12] = tested on: SDH C_T79I (strain Bos64); conditions: ratio IC50mutant/IC50WT, single determination
Description: as §1, §2, §3, §4, §5

SDH C_A84V (strain Flu4) = conditions: ratio IC50mutant/IC50WT, single determination
Description: as §1, §2, §3, §4, §5

[13] = tested on: SDH B_N225H (strain Cbx106); conditions: ratio IC50mutant/IC50WT, single determination
Description: as §1, §2, §3, §4, §5

[14] = tested on: SDH C_L85P (strain Cbx12); conditions: ratio IC50mutant/IC50WT, single determination
Description: as §1, §2, §3, §4, §5

[15] = tested on: SDH C_A84I (strain Flu21); conditions: ratio IC50mutant/IC50WT, single determination
Description: as §1, §2, §3, §4, §5

[16] = tested on: SDH B_P220T (strain Flu110); conditions: ratio IC50mutant/IC50WT, single determination
Description: as §1, §2, §3, §4, §5

[17] = tested on: SDH B_S218F (strain Flu41); conditions: ratio IC50mutant/IC50WT, single determination
Description: as §1, §2, §3, §4, §5

SDH C_S83G (strain Flu1) = conditions: ratio IC50mutant/IC50WT, single determination
Description: as §1, §2, §3, §4, §5

[18] = tested on: SDH D_D129E (strain Cbx22); conditions: ratio IC50mutant/IC50WT, single determination
Description: as §1, §2, §3, §4, §5

[19] = tested on: SDH B_P220L (strain Flu75); conditions: ratio IC50mutant/IC50WT, single determination
Description: as §1, §2, §3, §4, §5

[20] = tested on: SDH D_D129G (strain Cbx67); conditions: ratio IC50mutant/IC50WT, single determination
Description: as §1, §2, §3, §4, §5

Row | SMILES | Resistance Factors (RFs) in vitro [1] | Resistance Factors (RFs) in vitro [2] | Resistance Factors (RFs) in vitro [3] | Resistance Factors (RFs) in vitro (SDH C_N86K (strain Izm7)) | Resistance Factors (RFs) in vitro [4] | Resistance Factors (RFs) in vitro (SDH C_V88D (strain Ol50)) | Resistance Factors (RFs) in vitro [5] | Resistance Factors (RFs) in vitro [6] | Resistance Factors (RFs) in vitro [7] | Resistance Factors (RFs) in vitro [8] | Resistance Factors (RFs) in vitro [9] | Resistance Factors (RFs) in vitro [10] | Resistance Factors (RFs) in vitro [11] | Resistance Factors (RFs) in vitro [12] | Resistance Factors (RFs) in vitro (SDH C_A84V (strain Flu4)) | Resistance Factors (RFs) in vitro [13] | Resistance Factors (RFs) in vitro [14] | Resistance Factors (RFs) in vitro [15] | Resistance Factors (RFs) in vitro [16] | Resistance Factors (RFs) in vitro [17] | other results
1 | O=C(NCCc1ncc(C(F)(F)F)cc1Cl)c1ccccc1C(F)(F)F [Fluopyram] | 3724.4 | 68.3 | 5.1 | 245.8 | 25.0 | 55.4 | 12.3 | 63.0 | 11.8 | 766.1 | 2481.0 | 18.0 | 14.3 | 12.3 | 102.7 | 15.2 | 130.1 | 260.0 | 85 and 84.9 | 276.5 | Resistance Factors (RFs) in vitro (SDH C_S83G (strain Flu1)): 201.0; Resistance Factors (RFs) in vitro [18]: 10.5; Resistance Factors (RFs) in vitro [19]: 3.3; Resistance Factors (RFs) in vitro [20]: 1880.2
2 | O=C(Nc1ccccc1-c1ccc(Cl)cc1)c1cccnc1Cl [Boscalid] | 5515.8 | 34.8 | 473.8 | 160.2 | 18.5 | 59.8 | 341.2 | 256.0 | 1034.3 | 9126.6 | 223.7 | 12.7 | 58.1 | 145.6 | 3.7 | 20.1 | 34.7 | 4.4 | 28 and 28.3 | 46.3 | Resistance Factors (RFs) in vitro (SDH C_S83G (strain Flu1)): 1392.4; Resistance Factors (RFs) in vitro [18]: 1220.9; Resistance Factors (RFs) in vitro [19]: 2.6; Resistance Factors (RFs) in vitro [20]: 2052.4
3 | CC1=C(C(=O)Nc2ccccc2)SCCO1 [Carboxin] | FR** | 232.7 | 65.9 | 135.9 | 6.9 | 67.2 | 377.7 | 271.1 | 85.5 | 1959.3 | 1069.2 | 19.9 | 45.4 | 62.0 | 1.2 | 38.0 | 265.4 | 1.8 | 0.7 | 46.4 | Resistance Factors (RFs) in vitro (SDH C_S83G (strain Flu1)): 11.7; Resistance Factors (RFs) in vitro [18]: 631.6; Resistance Factors (RFs) in vitro [19]: 4.4; Resistance Factors (RFs) in vitro [20]: 2030.3

“And” between values parts separate entries of the source, which are not always exact repeats. Identical values can stand only once.
